Pooled drug test results. Numbers come from NIAID ChemDB, via PubChem.

All rows: tests in culture; species: Mycobacterium tuberculosis

Neighbouring rows are from separate reports. MIC bound comes from a single tested concentration. Inhibition is in % at the dose shown (toxicity tests: loss of growth or viability). A number after MIC or MFC names an inhibition level or a share of isolates. Two numbers with a dash give a range or band. Blank or dashed fields: not listed here. ECn: concentration that inhibits the pathogen or its effect by n%.

SMILES | method | dose | read-out | setting | changes | cell line | strain or isolate | result
CCCc1ccc(O)c2ncccc12 |  |  | MIC50 |  |  |  | M 607 | 25 µg/mL
O=C(NCc1ccc2ccc3cccnc3c2n1)c1ccc[n+](Cc2ccccc2)c1 | BACTEC |  | MIC bound |  |  |  | H37Rv | >12.5 µg/mL
CC(C)=CCOc1c2ccoc2cc2oc(=O)ccc12.NNC(=O)c1ccncc1 | agar |  | MIC100 |  | Isoniazid-resistant |  | H37Rv clinical isolate CRY7 | 25 µg/mL
COc1c(N2CCNC(C)C2)c(F)cc2c(=O)c(C(=O)O)cn(C3CC3)c12 |  |  | MIC |  |  |  | H37Rv | 0.1 µg/mL
N#CC1(c2nc3ccccc3o2)C(=O)C(=O)N(c2ccc(Cl)c(Cl)c2)C(=O)C1=O | BACTEC |  | MIC |  |  |  | H37Rv | >6.25 µg/mL
COc1ccc(/C=N/N=c2\scc(-c3cc4cc(Br)ccc4oc3=O)n2Cc2ccccc2)cc1 |  |  | MIC |  |  |  | H37Rv | >6.25 µg/mL
Clc1ccccc1CCNCCNCCNc1ccccc1 |  |  | MIC |  |  |  |  | 50 µM
O=C(CCCC(F)(F)F)N1CCC(c2cncc(Cl)c2)CC1 | fluorescence |  | EC50 |  |  | THP-1 | H37Rv | 0.05–0.25 µM
COc1cc2cc(C(=O)N3CC(CCl)c4ccc(O)cc43)[nH]c2c(OC)c1OC | BACTEC |  | MIC bound |  |  |  | H37Rv | >6.25 µg/mL
CCCCOc1ccc(/C=N/NC(=O)c2ccncc2)cc1 |  |  | MIC |  |  |  |  | 1 µg/mL
O=c1oc2ccccc2cc1-c1cs/c(=N\N=C\c2cc(Br)ccc2O)n1Cc1ccccc1 |  |  | MIC |  |  |  | H37Rv | >6.25 µg/mL
OCc1ccccc1Sc1ccccc1CNCCNCc1ccc2c(c1)OCO2 |  |  | MIC |  |  |  |  | 50 µM
COc1cc(-c2nnc(SCC3(c4ccc(Br)cc4)OCCO3)o2)cc(OC)c1OC | BACTEC | 6.25 µg/mL | inhibition |  |  |  | H37Rv | 7%
O=C(Oc1cc(Cl)ccc1C(=O)Nc1ccc(C(F)(F)F)cc1)c1cnccn1 |  |  | MIC | 14 d |  |  | multidrug resistant 7357/1998 | 0.5 µM
NCC[C@H](O)C(=O)N[C@@H]1C[C@H](N)[C@@H](O[C@H]2O[C@H](CN)[C@@H](O)[C@H](O)[C@H]2O)[C@H](O)[C@H]1O[C@H]1O[C@H](CO)[C@@H](O)[C@H](N)[C@H]1O |  |  | MIC90 |  |  |  | 30 isolates/HIV+ | 16 µg/mL
COc1cc2oc3cc(C)oc(=O)c3c2cc1OC | BACTEC |  | MIC bound |  |  |  | H37Rv | >12.5 µg/mL
c1ccc(C(CNCCN2CCCC3CCCCC32)c2ccccc2)cc1 |  |  | MIC |  |  |  |  | 18.8 µM
CC/C=C/C/C=C/C/C=C/CCCCCCCC(=O)OC | BACTEC |  | MIC bound |  |  |  | H37Rv | >12.5 µg/mL
COc1ccccc1/C=N/N=c1\scc(-c2cc3cc(Br)ccc3oc2=O)n1Cc1ccccc1 |  | 6.25 µg/mL | inhibition |  |  |  | H37Rv | <11%
COc1cccc2c1C(=O)c1c(O)c3c(c(O)c1C2=O)C[C@](O)(C(=O)CN1CCN(C)CC1)C[C@H]3OC1CC(N)C(O)C(C)O1.Cl | BACTEC | 12.5 µg/mL | inhibition |  |  |  | H37Rv | -8%
O=C(Oc1ccc(Br)cc1C(=O)Nc1ccc(C(F)(F)F)cc1)c1cnccn1 |  |  | MIC | 21 d |  |  | extensively drug resistant Praha 131 | 0.5 µM
CCCCCCCCCCCNCCNCCc1ccc(OC)c(OC)c1 |  |  | MIC |  |  |  |  | 12.5 µM
CCc1ccc(-c2cc(CN3CCOCC3)c(C)n2-c2ccc(F)cc2)cc1 |  |  | MIC90 |  |  |  | H37Rv | 50.04 µM
CCCCc1ccc(O)c2ncccc12 |  |  | MIC50 |  |  |  | M 607 | 10–25 µg/mL
CCCCCCC/C=C\C(O)C#CC#CC(O)CCOC | resazurin |  | MIC90 |  |  |  | Erdman | >60 µg/mL
COc1c2c(cc3c1C1Oc4c(ccc(O)c4CC=C(C)C)C1CO3)OC(C)(C)C=C2 | BACTEC |  | MIC bound |  |  |  | H37Rv | ≤12.5 µg/mL
C=CC(O)C#CC#CC(O)/C=C\CCCCCCCCOC(C)=O | resazurin |  | MIC90 |  |  |  | Erdman | 1.4 µg/mL
S=c1[nH]nc(-c2ccc(Cl)cc2Cl)o1 | BACTEC | 6.25 µg/mL | inhibition |  |  |  | H37Rv | 20%
O=c1oc2ccc(Br)cc2cc1-c1cs/c(=N\N=C\c2ccc(Cl)cc2)n1Cc1ccccc1 |  | 6.25 µg/mL | inhibition |  |  |  | H37Rv | <11%
Cc1cc([N+](=O)[O-])c2ncccc2c1 |  |  | MIC50 |  |  |  | H37Rv | >10 µg/mL
CC(C)=CCC/C(C)=C/CNCCNCCc1ccc(Cl)cc1Cl |  |  | MIC |  |  |  |  | 50 µM
O=C(N/N=C/c1ccc(O)cc1)c1cccnc1 |  |  | MIC |  |  |  |  | 10–1000 µg/mL
COc1ccc(-c2cc(CN3CCOCC3)c(C)n2-c2ccc(C)cc2)cc1 |  |  | MIC90 |  |  |  | H37Rv | 65.86 µM
CO[C@H]1/C=C/O[C@@]2(C)Oc3c(C)c(O)c4c(O)c(c(/C=N/N5CCN(C)CC5)c(O)c4c3C2=O)NC(=O)/C(C)=C\C=C\[C@H](C)[C@H](O)[C@@H](C)[C@@H](O)[C@@H](C)[C@H](OC(C)=O)[C@@H]1C |  |  | MIC99 |  | 511Pro |  |  | 80–640 µg/mL
O=C(CSc1nnc(-c2ccccc2O)o1)c1ccccc1 | BACTEC | 6.25 µg/mL | inhibition |  |  |  | H37Rv | 45%
O=C(Oc1ccc(Cl)cc1C(=O)Nc1ccc(Cl)cc1)c1cnccn1 |  |  | MIC | 14 d |  |  | H37Rv 331/88 | 2 µM
O=c1oc2ccc(Br)cc2cc1-c1cs/c(=N\N=C\c2cc(Br)ccc2O)n1Cc1ccccc1 |  | 6.25 µg/mL | inhibition |  |  |  | H37Rv | <11%
O=C(Oc1ccc(Cl)cc1C(=O)Nc1ccc(Cl)c(Cl)c1)c1cnccn1 |  |  | MIC | 14 d |  |  | multidrug resistant 234/2005 | 0.125 µM
Cc1ccc(Nc2c(C#N)[n+]([O-])c3cc(Cl)ccc3[n+]2[O-])cc1 |  | 12.5 µg/mL | inhibition |  |  |  | H37Rv | 99%
COc1ccc(CCc2cc(OC)c3ccccc3n2)cc1OC |  |  | MIC |  |  |  | MT1 | 12.5 µg/mL
C[C@@H]1CN(c2c(F)c(N)c3c(=O)c(C(=O)O)cn(C4CC4)c3c2F)C[C@H](C)N1 |  |  | MIC50 |  |  |  | 100 isolates | 0.5 µg/mL
NC(N)=NC(N)=Nc1ccc(S(=O)(=O)Nc2nccs2)cc1 | BACTEC | 12.5 µg/mL | inhibition |  |  |  | H37Rv | 36%
O=c1oc2ccc(Br)cc2cc1-c1cs/c(=N\N=C\c2ccc(Cl)c(Cl)c2)n1Cc1ccccc1 |  | 6.25 µg/mL | inhibition |  |  |  | H37Rv | <11%
CCN(CC)CCCCCCn1c2ccccc2c2c(C)c3cnccc3c(C)c21 | resazurin | 6.25 µg/mL | inhibition |  |  |  | H37Rv | 100%
Cc1ccc(-c2cc(CN3CCOCC3)c(C)n2-c2ccc(F)cc2)cc1 |  |  | MIC |  | V681I |  | H37Rv DR2 | 5.4 µM
COc1cc(/C=N/NC(=O)c2cccnc2)ccc1O |  |  | MIC |  |  |  |  | 1 µg/mL
CC1(C)OCC2OC3(C(=O)O)OC(C)(C)OC3C2O1 | BACTEC | 12.5 µg/mL | inhibition |  |  |  | H37Rv | 7%
C[C@@H]1CN(c2c(F)c(N)c3c(=O)c(C(=O)O)cn(C4CC4)c3c2F)C[C@H](C)N1 |  |  | MIC90 |  |  |  | 25 strains | 0.2 µg/mL
Nc1nc(N)c2c(n1)C(=O)N(Cc1ccccc1)C2 | BACTEC | 12.5 µg/mL | inhibition |  |  |  | H37Rv | 7%
CCCCC(CC)CN1CN(CC(CC)CCCC)CC(C)(NCCNC2CCC(C)CC2)C1 |  |  | MIC |  |  |  |  | 25 µM
CCN(CC)CCNc1cc2ccccc2c2sc3ccccc3c(=O)c12 | BACTEC |  | MIC bound |  |  |  | H37Rv | ≤12.5 µg/mL
CCS(=O)(=O)c1ccc(/C=N/NC(=O)c2ccncc2)cc1 |  |  | MIC |  |  |  |  | 0.1 µg/mL
NC(=O)C(=Cn1c(=S)[nH]c2ccc([N+](=O)[O-])cc21)C(N)=O | resazurin |  | MIC bound |  |  |  | H37Rv | >6.25 µg/mL
O=C(CCC(F)(F)F)N1CCC(c2cccc(C(F)(F)F)n2)CC1 | fluorescence |  | EC50 |  |  | THP-1 | H37Rv | 0.05–0.25 µM
O=c1oc2ccccc2cc1-c1cs/c(=N\N=C\c2ccc(Cl)c(Cl)c2)n1Cc1ccccc1 |  | 6.25 µg/mL | inhibition |  |  |  | H37Rv | <11%
CCOC(=O)c1cn(C)c2c(cc([N+](=O)[O-])c3cccnc32)c1=O |  |  | MIC90 |  | gyrA mutation S91P |  | H37Rv | >50 µM
Oc1c(Br)cc(Br)c2cccnc12 |  |  | MIC50 |  |  |  | M 607 | >25 µg/mL
COc1ccc2cc1-c1cc(ccc1O)C[C@@H]1NCCc3cc4c(cc31)Oc1c(c(OC)cc3c1[C@H](C2)N(C)CC3)O4 | resazurin |  | MIC |  |  |  | H37Rv-PZA-R ATCC 35828 | 6.2 µg/mL
CCOc1cc(/C=N/N=c2\scc(-c3cc4cc(Br)ccc4oc3=O)n2Cc2ccccc2)ccc1O |  | 6.25 µg/mL | inhibition |  |  |  | H37Rv | <11%
COC(=O)Nc1nc2c(OC)c(OC)c(OC)cc2[nH]1 | BACTEC | 0.5 µM | inhibition |  |  |  |  | 0%
O=C(CCC(F)(F)F)N1CCC(c2cncc(C(F)(F)F)n2)CC1 | fluorescence |  | EC50 |  |  | THP-1 | H37Rv | 0.05–0.25 µM
CNC(=O)c1ccc(NC(=O)Nc2ccc(C3=NCCN3)cc2)cc1NC(=O)Nc1cccc(C2=NCCN2)c1 | BACTEC | 12.5 µg/mL | inhibition |  |  |  | H37Rv | 96%
CC[C@H]1OC(=O)[C@H](C)[C@@H](O[C@H]2C[C@@](C)(OC)[C@@H](O)[C@H](C)O2)[C@H](C)[C@@H](O[C@@H]2O[C@H](C)C[C@H](N(C)C)[C@H]2O)[C@](C)(O)C[C@@H](C)CN(C)[C@H](C)[C@@H](O)[C@]1(C)O |  |  | MIC50 |  |  |  | 30 isolates/HIV+ | >8 µg/mL
O=c1oc2ccccc2c2c1Sc1ccccc1N2 | BACTEC |  | MIC bound |  |  |  | H37Rv | >12.5 µg/mL
CC(C)c1ccc2c(c1)CC[C@H]1[C@](C)(CNCCN[C@H]3C[C@@H]3c3ccccc3)CCC[C@]21C |  |  | MIC |  |  |  |  | 50 µM
O=C(N/N=C/c1ccccc1)c1cccnc1 |  |  | MIC |  |  |  |  | 1 µg/mL
CSc1ccc(-c2cc(CN3CCOCC3)c(C)n2-c2ccc(F)cc2)cc1 |  |  | MIC90 |  |  |  | H37Rv | 72.47 µM
COc1cc(-c2nnc(SCC(=O)c3ccc([N+](=O)[O-])cc3)o2)cc(OC)c1OC | BACTEC | 6.25 µg/mL | inhibition |  |  |  | H37Rv | 33%
O=C(Oc1ccc(Cl)cc1C(=O)Nc1ccc(C(F)(F)F)cc1)c1cnccn1 |  |  | MIC | 14 d |  |  | multidrug resistant 234/2005 | 0.25 µM
Cl.Cl.OCCN1CCCN(CCCN2c3ccccc3Sc3ccc(C(F)(F)F)cc32)CC1 | BACTEC |  | MIC bound |  |  |  | H37Rv | ≤12.5 µg/mL
COc1ccc2[nH]cc(CCNCCNCC(C)c3ccccc3)c2c1 |  |  | MIC |  |  |  |  | 50 µM
O=C1CSC(c2ccc(F)cc2)N1c1nncs1 | BACTEC | 12.5 µg/mL | inhibition |  |  |  | H37Rv | 15%
CNC1CCCN(c2c(F)cc3c(=O)c(C(=O)O)cn(C4CC4)c3c2OC)C1 |  |  | MIC90 |  |  |  | 100 isolates | 4 µg/mL
COc1cccc(C2(CSc3nnc(-c4ccc(O)cc4)o3)OCCO2)c1 | BACTEC | 6.25 µg/mL | inhibition |  |  |  | H37Rv | 0%
O=C(CCC(F)(F)F)N1CCC(F)(c2ccnc(F)c2)CC1 | fluorescence |  | EC50 |  |  | THP-1 | H37Rv | <0.05 µM
CCCCCc1cc(OC)c2ccccc2n1 |  |  | MIC |  |  |  | MT4 | 12.5 µg/mL
C[C@H](NCCNCc1ccc(C(F)(F)F)cc1)[C@H](O)c1ccc(O)c(O)c1 |  |  | MIC |  |  |  |  | 25 µM
O=c1[nH]c2ccccc2c(=O)n1CCCCCCN1CCN(c2cccc(Cl)c2)CC1 | resazurin |  | MIC bound |  |  |  | H37Rv | >6.25 µg/mL
O=C(O)c1ccc(O)c2ncccc12 |  |  | MIC50 |  |  |  | H37Rv | 5–10 µg/mL
COc1ccc2cc1-c1cc(ccc1O)C[C@H]1c3cc4c(cc3CCN1C)Oc1c(OC)cc3c(c1O4)[C@H](C2)N(C)CC3 | resazurin |  | MIC |  |  |  | H37Rv-ETA-R ATCC 35830 | 3.1 µg/mL
CO[C@@]12[C@H](COC(N)=O)C3=C(C(=O)C(C)=C(N)C3=O)N1C[C@H]1[C@@H]2N1C(=O)/C=C/c1ccccc1 | BACTEC |  | MIC |  |  |  | H37Rv | 0.2 µg/mL
O=C(CCC(F)(F)F)N1CCC(c2cccc(F)n2)CC1 | fluorescence |  | EC50 |  |  | THP-1 | H37Rv | 0.05–0.25 µM
CCn1cc(C(=O)O)c(=O)c2ccc(C)nc21 |  |  | MIC90 |  |  |  | H37Rv | >50 µM
O=C(N/N=C/C=C/c1ccccc1)c1ccncc1 |  |  | MIC |  |  |  |  | 0.1–1 µg/mL